Some results come without the dose or concentration used.
System: P. falciparum K1 strain
Assay: CalcuSyn drug combination assay
Assay type: cell-based, Plasmodium falciparum
Conditions: CalcuSyn median effect, K1, 72 h

[H]/N=C(\N/C(=N/[H])Nc1ccc(Cl)cc1)NC(C)C [Proguanil]
m (kinetic order and shape of the curve): 0.565

O=C1C(O)=C([C@H]2CC[C@H](c3ccc(Cl)cc3)CC2)C(=O)c2ccccc21 [Atovaquone]
m (kinetic order and shape of the curve): 0.652
